Measured data: PubChem BioAssay AID504761 (Drosophila RNAi Screening Center, 2011)
In all, the deposit lists about 22,000 reagents; shown is a random part of those with a known target gene and a result. In the full data, 116 (0.52%) were called active. 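Calls depend on retest data that are not deposited; infection was ranked per plate without normalising between plates; the unit of the infection score is not given.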 Reagents against one gene are numbered here. A plus sign joins genes that one reagent is predicted to hit. Not all columns of the deposit are shown. Reagent sequences are not shown. The record does not give: the amount of reagent, the time to read-out.

Assay: 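Fly genes whose silencing reduces dengue virus type 2 infection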 (primary screen)
Cell system: D.Mel-2 cells from Drosophila
Knock-down reagent: long dsRNA against Drosophila genes
Treatment: infection with dengue virus type 2; dose and infection time not stated
Measurement: 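Per well on two replicate plates, imaging gave the percent of cells positive for viral envelope protein, ranked by infection, and a nuclear count of cells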
Direction: infection score: higher = more virus-infected cells
Hit rule: 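Very low infection ranking in both replicate wells (chance probability at most 0.065), then a retest showing infection dropped 1.5-fold or more at p below 0.05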
Meaning of the calls: active = confirmed: knock-down lowers infection; inactive = not picked or not confirmed

no.	Gene	reagent	infection score, replicate 1	infection score, replicate 2	Call
1	CG14650	1	3.62	6.53	inactive
2	CG14650	2	13.7	12.2	inactive
3	RpL34b (Ribosomal protein L34b)	1	9.25	30.4	inactive
4	CG9875	1	11.5	19	inactive
5	T3dh + pgc	1	16.7	17.4	inactive
6	Flo1 (Flotillin 1)	1	16.5	45	inactive
7	Flo1 (Flotillin 1)	2	20.4	5	inactive
8	CG14246	1	4.57	3.4	inactive
9	CG14246	2	9.66	21.8	inactive
10	CG32572	1	16.9	4.71	inactive
11	CG32572	2	13.2	9.89	inactive
12	CG32572	3	5.16	12.9	inactive
13	CG12659	1	0.41	2.39	inactive
14	CG12659	2	16.6	7.46	inactive
15	Appl (beta amyloid protein precursor-like)	1	0.99	3.72	inactive
16	Appl (beta amyloid protein precursor-like)	2	14.3	7.96	inactive
17	Gr22c (Gustatory receptor 22c)	1	1.39	0.98	inactive
18	Gr22c (Gustatory receptor 22c)	2	2.84	4.63	inactive
19	GILT3 (Gamma-interferon-inducible lysosomal thiol reductase 3)	1	13.3	12.2	inactive
20	armi (armitage)	1	3.76	3.36	inactive
21	Slmap (Sarcolemma associated protein)	1	10.3	7.22	inactive
22	peo (pendolino)	1	12	12.9	inactive
23	Orct2 (Organic cation transporter 2)	1	2.91	12.9	inactive
24	Orct2 (Organic cation transporter 2)	2	9.13	6.64	inactive
25	CG18766	1	4.65	3.48	inactive
26	CG18766	2	11.3	14.7	inactive
27	Saf6 (SAGA factor-like TAF6)	1	6.22	4.28	inactive
28	ccb (central complex broad)	1	3.06	3.14	inactive
29	Hakai	1	22.2	9.68	inactive
30	Cog7 (Component of oligomeric golgi complex 7)	1	7.6	3.09	inactive
31	stumps	1	3.37	2.04	inactive
32	stumps	2	9.03	10.1	inactive
33	Daao2 (D-amino acid oxidase 2)	1	11.7	15.8	inactive
34	CG10068	1	2.72	8.89	inactive
35	CG3841	1	18		inactive
36	Hph (HIF prolyl hydroxylase)	1	2.69	8.4	inactive
37	Hph (HIF prolyl hydroxylase)	2	2.89	2.87	inactive
38	Hph (HIF prolyl hydroxylase)	3	12.2	1.02	inactive
39	dpr1 (defective proboscis extension response 1)	1	3.1	0.8	inactive
40	Elys	1	11.3	5.98	inactive
41	Grip71	1	0.68	2.67	inactive
42	e(y)3 (enhancer of yellow 3)	1	26.5	16.6	inactive
43	e(y)3 (enhancer of yellow 3)	2	11.6	8.91	inactive
44	Rcd-1 (Required for cell differentiation 1)	1	2.62	3.37	inactive
45	Gbeta76C (G protein beta subunit 76C)	1	6.02	20.2	inactive
46	CG5039	1	16.2	13.2	inactive
47	CG5039	2	35.8	27.5	inactive
48	nero	1	2.99	1.4	inactive
49	CG12865 (retired record)	1	15.4	3.46	inactive
50	CG12865 (retired record)	2	5.79	4.73	inactive
51	CG30172	1	2.87	15	inactive
52	CG30172	2	3.27	3.12	inactive
53	CG6980	1	2.44	4.49	inactive
54	CG6980	2	23.4	1.41	inactive
55	CG42380 + CG42379 + PIG-M + 1 more	1	1.56	1.11	inactive
56	CG42380 + CG42379 + PIG-M + 1 more	2	11.9	24.7	inactive
57	Nepl14 (Neprilysin-like 14)	1	2.3	7.03	inactive
58	fs(1)M3 (female sterile (1) M3)	1	2.29	5.13	inactive
59	fs(1)M3 (female sterile (1) M3)	2	0.26	20.8	inactive

6 entries from above, reformatted.
Orct2 (Organic cation transporter 2) #1 → infection score, replicate 1 = 2.91; infection score, replicate 2 = 12.9; Call = inactive
Orct2 (Organic cation transporter 2) #2 → infection score, replicate 1 = 9.13; infection score, replicate 2 = 6.64; Call = inactive
CG18766 #1 → infection score, replicate 1 = 4.65; infection score, replicate 2 = 3.48; Call = inactive
CG18766 #2 → infection score, replicate 1 = 11.3; infection score, replicate 2 = 14.7; Call = inactive
Saf6 (SAGA factor-like TAF6) → infection score, replicate 1 = 6.22; infection score, replicate 2 = 4.28; Call = inactive
ccb (central complex broad) → infection score, replicate 1 = 3.06; infection score, replicate 2 = 3.14; Call = inactive
